Measured values from paper PMC12077208 (mBio, 2025).

Test system: NTF2L domain of G3BP1
Assay: Single-particle cryo-EM structure of the CHIKV-43–NTF2L complex
Parameters: species or system human

CC[C@H](C)[C@H](NC(=O)[C@H](CCC(=O)O)NC(=O)CNC(=O)[C@H](CC(=O)O)NC(=O)[C@H](CC(N)=O)NC(=O)[C@H](Cc1ccccc1)NC(=O)[C@H](CC(=O)O)NC(=O)CNC(=O)[C@H](Cc1ccccc1)NC(=O)[C@@H](NC(=O)[C@@H](NC(=O)[C@@H]1CCCN1C(=O)[C@H](Cc1ccccc1)NC(=O)[C@@H](NC(=O)[C@H](CCC(=O)O)NC(=O)[C@H](CO)NC(=O)CNC(=O)[C@H](CC(C)C)NC(=O)[C@@H]1CCCN1C(=O)CN)[C@@H](C)O)[C@@H](C)CC)[C@@H](C)O)C(=O)N[C@@H](CCC(=O)O)C(=O)N[C@@H](CO)C(=O)N[C@@H](CC(C)C)C(=O)N[C@@H](CO)C(=O)N[C@@H](CO)C(=O)N[C@@H](CCC(=O)O)C(=O)N[C@@H](CC(C)C)C(=O)N[C@@H](CC(C)C)C(=O)N[C@H](C(=O)N[C@@H](Cc1ccccc1)C(=O)NCC(=O)N[C@@H](CC(=O)O)C(=O)N[C@@H](Cc1ccccc1)C(=O)N[C@@H](CC(C)C)C(=O)N1CCC[C@H]1C(=O)NCC(=O)N[C@@H](CCC(=O)O)C(=O)N[C@H](C(=O)N[C@@H](CC(=O)O)C(=O)N[C@@H](CC(=O)O)C(=O)N[C@@H](CC(C)C)C(=O)N[C@H](C(=O)N[C@@H](CC(=O)O)C(=O)N[C@@H](CO)C(=O)N[C@@H](CC(=O)O)C(=O)N[C@@H](Cc1c[nH]c2ccccc12)C(=O)N[C@@H](CO)C(=O)N[C@H](C(=O)N[C@@H](Cc1c[nH]cn1)C(=O)N[C@@H](Cc1c[nH]cn1)C(=O)N[C@@H](Cc1c[nH]cn1)C(=O)N[C@@H](Cc1c[nH]cn1)C(=O)N[C@@H](Cc1c[nH]cn1)C(=O)N[C@@H](Cc1c[nH]cn1)C(=O)O)[C@@H](C)O)[C@@H](C)O)C(C)C)[C@@H](C)O [CHIKV-43]
proportion of total particles (Conformation I of the CHIKV-43–NTF2L complex): 49.1% | proportion of total particles (Conformation II of the CHIKV-43–NTF2L complex): 32.9% | proportion of total particles (Conformation III of the CHIKV-43–NTF2L complex): 18.0% | composition of the complex in the final cryo-EM model (cryo-EM, approximately 2.7 Å resolution): eight CHIKV-43 peptides and eight NTF2L homodimers
